Human monoclonal antibodies against the spike receptor-binding domain (heavy:light variable regions). IC50 against pseudoviruses bearing the spike of naturally observed variants; lower = stronger; >10 µg/ml means not reached at the top dose. No active / inactive call. The stated detection limit is 0.0005 µg/ml; values near or below 0.001 µg/ml lie at the floor of the assay.
B1: BD56-1581 (protein)
chain 1: QVQLQESGPGLVKPSETLSLTCTVSGGSISSYYWSWIRQPAGQGLEWIGRMYISGSTNYNPSLKSRVTMSVDTSKSQFSLNLSSVTAADTAVYYCARGTITAGPDDYFYYYGMDVWGPGTTVTVSS
chain 2: SYELTQPPSVSVSPGQTARITCSGDALPKQYAYWFQQKPGQAPLLVIHKDSERPSGIPERFSGSSSGTTVTLTISGVQAEDEADYYCQSADSSGTYCVFGGGTKLTVL
B2: BD56-1585 (protein)
chain 1: EVQLVESGGGLAQPGGSLRLSCEASGIIVRRNYMHWVRQAPGKGLEWVSVMYPGGSTFYADSVKGRFTISRDNSKNTLYLRMNSLRAEDTAVYYCARDQGEDTFDIWGQGTMVTVSS
chain 2: DIQLTQSPSFLSASVGNRVTITCRASQDIGTYLAWYQQKPGKAPKLLIYAASTLQTGVPSRFSGSGSGTEFTLTVSSLQPEDFATYYCQQLNSSPPLFGGGTKVEIK
B3: BD56-1594 (protein)
chain 1: EVQLVESGGGLVQPGRSLRLSCSASGFTFDDYGMHWVRQGPGTGLEWVSGINWNSDSVAYADSVKGRFTISRDNAKNFLYLQMNSLRTEDTAMYYCAKDMRVGFGDYFDYWGQGTLVTVSA
chain 2: SYVLTQPPSVSVAPGKTARITCGGNNIGSKSVHWYQQKPGQAPVVVIHYDSDRPSGIPERFSGSNSGNTATLTISRVEAGDEADYYCQVWDSSSDHPYVFGAGTKVTVL
B4: BD56-1598 (protein)
chain 1: QVQLQESGPGLVKPGQTLSLTCTVSGGSISSASNYWSWIRQPAGKGLEWIGRIYTSGSANYKPSLKGRLTISLDTSRNQFSLKLNSVTASDTAVYYCACGGDFRYFDLWGRGTLVTVSS
chain 2: NFMLTQPHSVSESPGKTVTISCTRSSGSIAGNFVQWYQHRPGSAPITLIYEDDLRSSGVPDRFSGSIDSSSNSASLTISGLKAEDEAEYSCQSYHSGNVVFGGGTKLTVL
B5: BD56-1600 (protein)
chain 1: QVQLVQSGAGVKRPGASVKVSCKASGYSFTSYYVHWVRQAPGQRLEWMGTINPSGGSTTYAQNFQGRVTMTSDTSTSTVYMELISLRSEDTAVYYCARDSYYYDSGYYRHYNWFDPWGQGTLVTVSS
chain 2: NFMLTQPHSVSESPGKTVTISCTGSGGDIGSNYVQWYQQRPGSAPTTVIYKNNQRPSGVPDRFSGSIDSSSNSASLTISGLKSEDEAEYYCQSYDSSNQVFGGGTKLAVL
B6: BD56-1605 (protein)
chain 1: EVQLVESGGGLVQPGGSLRVSCAASGFIFNSYWMTWVRQAPGKGLEWVANIKQDGSETNYVDSVKGRFTISRDNAKNSLYLEMRSLRSEDTAVYHCARDPVDGYIDYWGQGTLVTVSS
chain 2: EIVMTQSPATLSASPGERATLSCRASDYISSSLAWYQQTPGQAPRLLIYGASTRATGVPARFSGSGSGTEFTLTISSLQSEDFAVYSCHQYHSWPPWTFGQGTKVEIK
B7: BD56-1613 (protein)
chain 1: EVQLVQSGAEVKKPGESLKISCKGSGYSFTTFWIGWVRQMPGKGLEWMGIIFPGDSDTRYSPSFQGQVTISADKSISTAYLQWRSLKASDTAIYYCARLFDYVGFDPWGQGTLVTVSS
chain 2: SSELTQDPAVSVALGQTIRITCQGDSLRSYYASWYQQKPGQAPILVIYDKDKRPSGIPDRFSGSSSGNTASLTISGAQAEDEADYYCNSRDNDDNHYVFGTGTKVTVL
B8: LY-CoV481 (protein)
chain 1: EVQLVESGGGLIQPGGSLRLSCAASGFTVSSNYMSWVRQAPGKGLEWVSVIYPGGSTFYADSVKGRFTISRDNSKNTLYLQMNSLRAEDTAVYYCAREVAGTYDYWGQGTLVTVSS
chain 2: DIQMTQSPSSVSASVGDRVTITCRASQGISSWLAWYQQKPGKAPKLLIYAASSLQSGVPSRFSGSGSGTDFTLTISSLQPEDFATYYCQQANSFPGGTFGPGTKVDIK
B9: BD56-1624 (protein)
chain 1: EVQLVESGGGLVQPGGSLRLSCVASGFTFSTYDMHWVRQAPGKGLEWVSAIGTAGDTYYPGSVKGRFTISRENAKNSLYLQMNSLRAGDTAVYYCARGVFDTAMVRGWFDPWGQGTLVTVSS
chain 2: DIQMTQSPSSLSASVGTRVTITCRASQTISNYLNWYQQKPGKAPKLLIYTASSLQSGVPSRFSGSGSGTDFTLTISSLQPEDFATYYCQQSYSIPPWTFGQGTKLEIK
B10: BD56-1626 (protein)
chain 1: QVQLVESGGGVVQPGRSLRLSCAASGFTFSHYGMHWVRQAAGKGLEWVAVILYDGSETYYADSVKGRFTISRDNSKNTLYLQMNRLRPEDTAVYYCAKVSGPYCGGGNCYSGYFDYWGQGSLVTVSS
chain 2: DIQMTQSPSTLSASVGDRVTITCRASQSVSTWLAWYQQKPGKAPKVLIYEASNLESGVPSRFSGSGSGTEFTLTISSLQPDDFATYYCQQYDTYSNTFGQGTKLEIK
B11: BD56-1630 (protein)
chain 1: EVQLVQSGAEVKKPGESLKISCKASGYSFISYWVGWVRQMPGKGLEWMGLIYPGDSDTRYSPSFQGHVTISADKSISTTYLQWSSLKASDTAMYYCARRDSSWNDFDLWGQGSLVTVSS
chain 2: DIQMTQSPSSLSASVGDSVTITCRASQTISSYLNWYQQKPGKAPKLLIYAASSLQSGVPSRFRGSGSGTDFTLTISSLQPEDFATYYCQESYSSLYTFGQGTKLDIK
B12: BD56-1631 (protein)
chain 1: QVQLVESGGGVVQPGKSLRLSCTDSGFNFSNSAFHWVRQAPGKGLEWVAVISSHGTDTYYADSVEGRFTISRDQSRNTLYLQMSSLRTEDTAVYYCARGLKVPGVIGEAYYYYGMDVWGQGTTVAVSS
chain 2: DIQMTQSPSSVSASVGDRVTITCRASQGISSWLAWYQQKPGKAPKLLIYDASLLQSGVPSRFSGSGSGTDFTLTISSVQPEDFATYSCQQTLIFPWTFGQGTKVEIK
B13: BD56-1632 (protein)
chain 1: QVQLRESGPGLVKPSQTLSLMCTVSGGSIVSGTYFWNWIRQPAGKGLEWIGRIYTSGSTDYNPSLRSRVTISVDTSKNQFSLRLSSVTAADTAVYYCAREDSSGWYTGDTLDLWGQGTMVTVSS
chain 2: DIQMTQSPLSLSASVGDRVTITCRASQSISRYLNWFQQIPGKAPKLLIYAANSLQGAVPSRFSGDGSGTDFTLTISSLQPEDFATYFCQQSYSPPWTFGQGTKVEIK

Columns and labels:
Assay in all cases: pseudovirus neutralization IC50; higher = weaker neutralization
[1] = target: SARS-CoV-2 Omicron BA.1 spike pseudovirus
Method: (§1)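 Single-round VSV luciferase pseudovirus mixed with antibody dilutions for 1 h and put on Huh-7 cells for about a day; IC50 from the dose curve.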

[2] = target: SARS-CoV-2 Omicron BA.2 spike pseudovirus
Method: as §1

[3] = target: SARS-CoV-2 Omicron BA.2.75 spike pseudovirus
Method: as §1

[4] = target: SARS-CoV-2 Omicron BA.5 spike pseudovirus
Method: as §1

[5] = target: SARS-CoV-2 Omicron BQ.1.1 spike pseudovirus
Method: as §1

[6] = target: SARS-CoV-2 Omicron XBB spike pseudovirus
Method: as §1

[7] = target: SARS-CoV-2 early D614G spike pseudovirus
Method: as §1

Binder	pseudovirus neutralization IC50 [1] [µg/mL]	pseudovirus neutralization IC50 [2] [µg/mL]	pseudovirus neutralization IC50 [3] [µg/mL]	pseudovirus neutralization IC50 [4] [µg/mL]	pseudovirus neutralization IC50 [5] [µg/mL]	pseudovirus neutralization IC50 [6] [µg/mL]	pseudovirus neutralization IC50 [7] [µg/mL]
B1	0.814	0.78	0.389	1.52	2.91	2.61	0.888
B2	0.00712	0.00504	> 10	0.0563	> 10	> 10	0.0426
B3	> 10	> 10	> 10	> 10	> 10	> 10	> 10
B4	0.0846	0.11	0.0334	0.774	> 10	> 10	0.0661
B5	0.839	0.943	0.576	0.35	1.08	0.791	0.939
B6	> 10	> 10	> 10	> 10	> 10	> 10	> 10
B7	0.565	0.636	0.908	0.93	0.754	0.715	> 10
B8	> 10	> 10	> 10	> 10	> 10	> 10	0.0536
B9	> 10	> 10	> 10	> 10	> 10	> 10	> 10
B10	> 10	> 10	> 10	> 10	> 10	> 10	2.11
B11	> 10	> 10	> 10	> 10	> 10	> 10	> 10
B12	0.000908	0.000548	0.00121	> 10	> 10	> 10	0.00252
B13	> 10	> 10	> 10	> 10	> 10	> 10	2.4

From the supplement of paper PMC9931576
